The target of the assay is NSP3 ADRP (Severe acute respiratory syndrome coronavirus 2, UniProt P0DTC1). Description: biochemical. Format: binding, SARS‐CoV‐2.

Molecule `CC[C@H](C)[C@H](NC(=O)CNC(=O)[C@H](CC(C)C)NC(=O)[C@H](CC(C)C)NC(=O)[C@H](CCC(=O)O)NC(=O)[C@H](CO)NC(=O)[C@H](CC(C)C)NC(=O)[C@@H]1CCCN1C(=O)[C@H](Cc1c[nH]cn1)NC(=O)[C@H](CC(C)C)NC(=O)[C@H](Cc1ccc(O)cc1)NC(=O)[C@@H](NC(=O)[C@H](CO)NC(C)=O)[C@@H](C)O)C(=O)N1CCC[C@H]1C(=O)N[C@@H](CC(C)C)C(=O)N[C@@H](CC(=O)O)C(N)=O` [MBOAT1 wt] registered a Kd of 49 µM.

By Kd is commonly meant the constant that tells how readily two partners part at equilibrium. A higher Kd goes with a looser complex.

Source of the values: publication PMC12102759 (Protein Science : A Publication of the Protein Society, 2025).
